Experimental findings from PubChem BioAssay AID375 (SRMLSC, 2006) are described below.

The chains behind the UniProt entries cited, without tags or fusion partners.
UniProt P9WIL5, whole entry: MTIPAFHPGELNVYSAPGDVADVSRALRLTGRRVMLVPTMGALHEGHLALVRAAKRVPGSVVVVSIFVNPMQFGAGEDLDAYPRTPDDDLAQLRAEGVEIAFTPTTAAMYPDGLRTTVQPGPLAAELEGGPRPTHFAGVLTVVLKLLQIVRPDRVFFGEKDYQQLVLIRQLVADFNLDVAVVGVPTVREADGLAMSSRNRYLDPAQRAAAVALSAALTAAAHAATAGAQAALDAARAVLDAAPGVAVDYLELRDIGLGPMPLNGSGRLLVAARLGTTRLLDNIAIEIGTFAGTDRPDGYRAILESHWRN

Only a part is listed here, and it is no random draw. Calls of active or inactive are those of the source. No rule for the calls is given here.

The assay addresses Pantothenate synthetase (Mycobacterium tuberculosis (strain ATCC 25618 / H37Rv)) (UniProt P9WIL5). Description: Recombinant Mtb pantothenate synthetase (PanC) inhibitors, coupled enzyme, confirmatory (AID 375).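 Also: 0% = full reaction with vehicle and 100% = no enzyme background.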 The note with it: coupled enzyme assay, at 10 µM, active compounds read high.
In general, inhibition refers to the relative decrease from the control value, in per cent. As for `Fc1ccccc1NC1CCN(Cc2ccccc2)CC1`, the inhibition was inactive: 9%.
